Data set [1] relates to O=[N+]([O-])c1ccc(OP(=O)(O)Oc2ccc([N+](=O)[O-])cc2)cc1. Kind of data set: purified protein. As to conditions: pH 8.0; 37.0 °C.
In data set [2] the test system is O=[N+]([O-])c1ccc(OP(=O)(O)O)cc1. Briefly: purified protein. As to conditions: pH 8.0; 37.0 °C.

This passage reports Km and kcat/Km results from article PMC7642983.

As usually defined, the Km is the substrate concentration at which the rate is half of its maximum. Usually kcat/Km stands for the turnover number divided by the Michaelis constant.

Regarding “rRv2577 (Rv2577, MapH) (Mycobacterium tuberculosis H37Rv)”, in data set [1], the Michaelis-Menten constant (Km) worked out at 60 µM and the kcat/Km was determined as 280 M⁻¹ s⁻¹. Also, in data set [2], the Km came out at 82 µM and the kcat/Km came out at 485 M⁻¹ s⁻¹.
